For the data set, the system named is 293T cells. The data set can be described thus: Confocal microscopy of cell penetration. It counts as cell-based. The conditions noted are these: fluorescently labelled peptide, live cells.

Where a SMILES comes first, the peptide text is derived from it. Bridges are numbered along the chain shown (N, C = ends). [ ]: non-standard residue; d: D form. R8 = C=CCCCCCC[C@@](C)(N)C(=O)O; S5 = C=CCCC[C@](C)(N)C(=O)O

For the molecule “5FAM-β-Ala-NYAD-40: 6-carboxyfluorescein (FAM)-labelled linear peptide NYAD-40 (ISFDELLDYYGESGS; 5-FAM-β-Ala N-terminal label; Linear peptide NYAD-40) [reference compound]”, the “penetration of the cell membrane / uptake by cells” value was “did not penetrate”.
Then `CC[C@H](C)[C@H](N)C(=O)N[C@@H](CO)C(=O)N[C@@H](Cc1ccccc1)C(=O)N[C@]1(C)CCCCCC/C=C\CCC[C@@](C)(C(=O)N[C@@H](CCC(=O)O)C(=O)N[C@@H](CO)C(=O)NCC(=O)N[C@@H](CO)C(N)=O)NC(=O)[C@H](Cc2ccc(O)cc2)NC(=O)[C@H](Cc2ccc(O)cc2)NC(=O)[C@H](CC(=O)O)NC(=O)[C@H](CC(C)C)NC(=O)[C@H](CC(C)C)NC(=O)[C@H](CCC(=O)O)NC1=O` [NYAD-36] (H-ISF[R8]ELLDYY[S5]ESGS-NH2; staple (Z) 4-11), with “penetrated the cell membrane”.

The record behind these values is US8937154B2, “Stabilized therapeutic small helical antiviral peptides” (priority 2006, dated 2015).
